Experimental data as given in US10155971B2, “Rapid antibiotic susceptibility testing system based on bacterial immobilization using gelling agent, antibiotic diffusion and tracking of single bacterial cells” (SNU R & DB FOUNDATION, priority 2012, dated 2018).

How the values were obtained:
[1] = tested on: Escherichia coli ATCC 25922; test: Rapid antibiotic susceptibility test (RAST) in microfluidic agarose channel (MAC), MIC by single-cell time-lapse imaging; type: cell-based; conditions: E. coli ATCC 25922; RAST method
Protocol: Radial microfluidic channels with six branches were formed using soft-lithography. First, SU8 mold (2015 SU8, Microchem) was fabricated by employing photolithography. Polydimethylsiloxane (PDMS, Dow Corning) was mixed with a curing agent (10:1, w/w) and poured into the SU8. After baking at 150° C. for 10 min, the PDMS was peeled off and attached to the PDMS-coated slide glass by O2 plasma treatment to obtain a radial microfluidic channel chip capable of testing antibiotics having five concentrations and a control with no antibiotic. There were six main channels that carried one side-branched channel each. […] A mixture of agarose and bacteria was allowed to flow in the main channels, and the bioactive agents were allowed to flow in the respective side-branched channels. In the middle of each main channel, there were anchors in the form of micro-sized posts for forming an interface between the agarose and each of the bioactive agents. The posts blocked the agarose from flowing into the side-branched channel. The sizes of the posts and the pitches between the posts were determined by mathematical calculations. For appropriate hydrophobicity to occur in the channel, the channel was prepared one day before experiment to increase the surface tension after O2 plasma treatment. Agarose is solidified at a temperature lower than 36° C. The cultured bacteria were mixed with 2% agarose (1:3, v/v) at 45° C. and immediately injected into the microfluidic channels. The agarose-bacteria mixture was solidified at 25° C. for 1 min. The obtained microfluidic agarose channel (MAC) chip was placed on a hot plate and incubated at 37° C. […] The growth of the bacteria was monitored using a microscope. Bacterial growth was not inhibited and could be clearly monitored in the MAC system. […] The Matlab program calculated the areas that were occupied by each bacterium. […] The occupied areas were measured using the image processing program. […] Bacterial growth was monitored by using a microscope (40×) and a CCD camera. Images of bacterial growth were taken every hour and were analyzed by using the image processing program. […]

[2] = tested on: Staphylococcus aureus ATCC 29213; test: as above; type: cell-based; conditions: S. aureus ATCC 29213; RAST method
Protocol: Radial microfluidic channels with six branches were formed using soft-lithography. First, SU8 mold (2015 SU8, Microchem) was fabricated by employing photolithography. Polydimethylsiloxane (PDMS, Dow Corning) was mixed with a curing agent (10:1, w/w) and poured into the SU8. After baking at 150° C. for 10 min, the PDMS was peeled off and attached to the PDMS-coated slide glass by O2 plasma treatment to obtain a radial microfluidic channel chip capable of testing antibiotics having five concentrations and a control with no antibiotic. There were six main channels that carried one side-branched channel each. […] A mixture of agarose and bacteria was allowed to flow in the main channels, and the bioactive agents were allowed to flow in the respective side-branched channels. In the middle of each main channel, there were anchors in the form of micro-sized posts for forming an interface between the agarose and each of the bioactive agents. The posts blocked the agarose from flowing into the side-branched channel. The sizes of the posts and the pitches between the posts were determined by mathematical calculations. For appropriate hydrophobicity to occur in the channel, the channel was prepared one day before experiment to increase the surface tension after O2 plasma treatment. Agarose is solidified at a temperature lower than 36° C. […] The growth of the bacteria was monitored using a microscope. Bacterial growth was not inhibited and could be clearly monitored in the MAC system. […] The Matlab program calculated the areas that were occupied by each bacterium. […] The occupied areas were measured using the image processing program. […] Bacterial growth was monitored by using a microscope (40×) and a CCD camera. Images of bacterial growth were taken every hour and were analyzed by using the image processing program. […] After image processing, the bacteria that occupied the area were measured and plotted on the graph for different concentrations of gentamicin according to the incubation time. […]

Compound | Time required to determine the MIC [1] | Time required to determine the MIC [2]
CCn1cc(C(=O)O)c(=O)c2cc(F)c(N3CCNCC3)cc21 [Norfloxacin] | 4 h | 7 h
gentamicin [Geninmycin] | 4 h | 3 h
NCC[C@H](O)C(=O)N[C@@H]1C[C@H](N)[C@@H](O[C@H]2O[C@H](CN)[C@@H](O)[C@H](O)[C@H]2O)[C@H](O)[C@H]1O[C@H]1O[C@H](CO)[C@@H](O)[C@H](N)[C@H]1O [Amikacin] | 3 h | 3 h
